Pooled drug test results. Numbers come from NIAID ChemDB, via PubChem.

All rows: whole-cell or culture tests; organism: Mycobacterium avium complex; read-out: MIC

a–b is a range or a potency band. Conditions beyond the fields shown may differ between rows.

structure,strain or isolate,value
COc1c(N2C[C@@H]3CCCN[C@@H]3C2)c(F)cc2c(=O)c(C(=O)O)cn(C3CC3)c12,101,0.1 µg/mL
CO[C@H]1/C=C/O[C@@]2(C)Oc3c(C)c(O)c4c(=O)c(c5oc6cc(N(C)CC(C)C)cc(=O)c6nc5c4c3=C2O)NC(=O)/C(C)=C\C=C\[C@H](C)[C@H](O)[C@@H](C)[C@@H](O)[C@@H](C)[C@H](OC(C)=O)[C@@H]1C,31F093T,0.6 µg/mL
CCn1cc(C(=O)O)c(=O)c2cc(F)c(N3CCNCC3)cc21,2 strains,>5 µg/mL
CO[C@H]1/C=C/O[C@@]2(C)Oc3c(C)c(O)c4c(=O)c(c5oc6cc(N7CCNCC7)cc(=O)c6nc5c4c3=C2O)NC(=O)/C(C)=C\C=C\[C@H](C)[C@H](O)[C@@H](C)[C@@H](O)[C@@H](C)[C@H](OC(C)=O)[C@@H]1C,31F093T,0.6 µg/mL
CO[C@H]1/C=C/O[C@@]2(C)Oc3c(C)c(O)c4c(O)c(c(/C=N/N5CCN(C)CC5)c(O)c4c3C2=O)NC(=O)/C(C)=C\C=C\[C@H](C)[C@H](O)[C@@H](C)[C@@H](O)[C@@H](C)[C@H](OC(C)=O)[C@@H]1C,CIPT 140310003 (smooth),0.5 µg/mL
CC[C@@H](CO)NCCN[C@@H](CC)CO,N-966,32 µg/mL
CC[C@H]1OC(=O)[C@H](C)[C@@H](O[C@H]2C[C@@](C)(OC)[C@@H](O)[C@H](C)O2)[C@H](C)[C@@H](O[C@@H]2O[C@H](C)C[C@H](N(C)C)[C@H]2O)[C@](C)(OC)C[C@@H](C)C(=O)[C@H](C)[C@@H](O)[C@]1(C)O,101,4 µg/mL
C[C@@H](O)[C@H]1C(=O)N2C(C(=O)O)=C(SCCN=CN)C[C@H]12,32 isolates,4 µg/mL
CO[C@H]1/C=C/O[C@@]2(C)Oc3c(C)c(O)c4c(=O)c(c5oc6cc(N(C)C)cc(=O)c6nc5c4c3=C2O)NC(=O)/C(C)=C\C=C\[C@H](C)[C@H](O)[C@@H](C)[C@@H](O)[C@@H](C)[C@H](OC(C)=O)[C@@H]1C,31F093T,0.3 µg/mL
CO[C@H]1/C=C/O[C@@]2(C)Oc3c(C)c(O)c4c(O)c(c(/C=N/N5CCN(C)CC5)c(O)c4c3C2=O)NC(=O)/C(C)=C\C=C\[C@H](C)[C@H](O)[C@@H](C)[C@@H](O)[C@@H](C)[C@H](OC(C)=O)[C@@H]1C,30 isolates,16 µg/mL
CO[C@H]1/C=C/O[C@@]2(C)Oc3c(C)c(O)c4c(O)c(c(/C=N/N5CCN(C)CC5)c(O)c4c3C2=O)NC(=O)/C(C)=C\C=C\[C@H](C)[C@H](O)[C@@H](C)[C@@H](O)[C@@H](C)[C@H](OC(C)=O)[C@@H]1C,N-966,>100 µg/mL
CCCN1CCN(c2cc(=O)c3nc4c(oc3c2)c2c(=O)c3c(O)c(C)c5c(c34)=C(O)[C@@](C)(O/C=C/[C@H](OC)[C@@H](C)[C@@H](OC(C)=O)[C@H](C)[C@H](O)[C@H](C)[C@@H](O)[C@@H](C)/C=C/C=C(/C)C(=O)N2)O5)CC1,31F093T,0.07 µg/mL
CN[C@@H]1[C@H](O[C@H]2[C@H](O[C@H]3[C@H](O)[C@@H](O)[C@H](N=C(N)N)[C@@H](O)[C@@H]3N=C(N)N)O[C@@H](C)[C@]2(O)C=O)O[C@@H](CO)[C@H](O)[C@H]1O,101,16 µg/mL
CO[C@H]1/C=C/O[C@@]2(C)Oc3c(C)c(O)c4c(O)c(c5c(c4c3C2=O)NC2(CCN(CC(C)C)CC2)N=5)=NC(=O)/C(C)=C\C=C\[C@H](C)[C@H](O)[C@@H](C)[C@@H](O)[C@@H](C)[C@H](OC(C)=O)[C@@H]1C,31F093T,1.25 µg/mL
NC[C@H]1O[C@H](O[C@H]2[C@H](O)[C@@H](O[C@H]3O[C@H](CO)[C@@H](O)[C@H](N)[C@H]3O)[C@H](N)C[C@@H]2N)[C@H](O)[C@@H](O)[C@@H]1O,32 isolates,5 µg/mL
CCn1cc(C(=O)O)c(=O)c2cc(F)c(N3CCN(C)CC3)cc21,CIPT 14031005,40 µg/mL
CNC1C(OC2C(OC3C(O)C(O)C(N=C(N)N)C(O)C3N=C(N)N)OC(C)C2(O)/C=N/NC(=O)c2ccncc2)OC(CO)C(O)C1O,32 isolates,5 µg/mL
CCC(C)N1CCN(c2cc(=O)c3nc4c(oc3c2)c2c(=O)c3c(O)c(C)c5c(c34)=C(O)[C@@](C)(O/C=C/[C@H](OC)[C@@H](C)[C@@H](OC(C)=O)[C@H](C)[C@H](O)[C@H](C)[C@@H](O)[C@@H](C)/C=C/C=C(/C)C(=O)N2)O5)CC1,31F093T,0.035 µg/mL
NCCC(O)C(N)CC(=O)NC1CNC(=O)C(C2CCN=C(N)N2)NC(=O)/C(=C/NC(N)=O)NC(=O)C(CO)NC(=O)C(CO)NC1=O,32 isolates,3 µg/mL
CO[C@H]1/C=C/O[C@@]2(C)Oc3c(C)c(O)c4c(O)c(c(/C=N/N5CCN(C)CC5)c(O)c4c3C2=O)NC(=O)/C(C)=C\C=C\[C@H](C)[C@H](O)[C@@H](C)[C@@H](O)[C@@H](C)[C@H](OC(C)=O)[C@@H]1C,13887 (serotype 14),0.4 µg/mL
CC[C@@H](CO)NCCN[C@@H](CC)CO,1339-3,1.9 µg/mL
O=C(NO)c1cc(Br)ccc1O,32 isolates,10 µg/mL
CC[C@@H](CO)NCCN[C@@H](CC)CO,101,16 µg/mL
CO[C@H]1/C=C/O[C@@]2(C)Oc3c(C)c(O)c4c(O)c(c(/C=N/N5CCN(C)CC5)c(O)c4c3C2=O)NC(=O)/C(C)=C\C=C\[C@H](C)[C@H](O)[C@@H](C)[C@@H](O)[C@@H](C)[C@H](OC(C)=O)[C@@H]1C,31F093T,5 µg/mL
NC(=O)c1cnccn1,101,>64 µg/mL
CC[C@@H](CO)NCCN[C@@H](CC)CO,30 isolates,0.03–16 µg/mL
COc1ccc(/C=C/NC=O)cc1,32 isolates,10 µg/mL
NC[C@H]1O[C@H](O[C@H]2[C@H](O)[C@@H](O[C@H]3O[C@H](CO)[C@@H](O)[C@H](N)[C@H]3O)[C@H](N)C[C@@H]2N)[C@H](O)[C@@H](O)[C@@H]1O,Isolate C-49,400 µg/mL
CCn1cc(C(=O)O)c(=O)c2cc(F)c(N3CCNCC3)cc21,30 isolates,128 µg/mL
CCc1cc(C(N)=S)ccn1,32 isolates,10 µg/mL
NCC[C@H](O)C(=O)N[C@@H]1C[C@H](N)[C@@H](O[C@H]2O[C@H](CN)[C@@H](O)[C@H](O)[C@H]2O)[C@H](O)[C@H]1O[C@H]1O[C@H](CO)[C@@H](O)[C@H](N)[C@H]1O,30 isolates,4–16 µg/mL
CC1COc2c(N3CCN(C)CC3)c(F)cc3c(=O)c(C(=O)O)cn1c23,32 isolates,2 µg/mL
CN[C@@H]1[C@H](O[C@H]2[C@H](O[C@H]3[C@H](O)[C@@H](O)[C@H](N=C(N)N)[C@@H](O)[C@@H]3N=C(N)N)O[C@@H](C)[C@]2(O)C=O)O[C@@H](CO)[C@H](O)[C@H]1O,13011 (serotype 16),12.5 µg/mL
CCn1cc(C(=O)O)c(=O)c2cc(F)c(N3CCNCC3)nc21,CIPT 140310030,20 µg/mL
CO[C@H]1/C=C/O[C@@]2(C)Oc3c(C)c(O)c4c(O)c(c(/C=N/N5CCN(C/C=C/c6ccccc6)CC5)c(O)c4c3C2=O)NC(=O)/C(C)=C\C=C\[C@H](C)[C@H](O)[C@@H](C)[C@@H](O)[C@@H](C)[C@H](OC(C)=O)[C@@H]1C,CH1,0.12 µg/mL
CC[C@@H](CO)NCCN[C@@H](CC)CO,32 isolates,8 µg/mL
CN[C@@H]1[C@H](O[C@H]2[C@H](O[C@H]3[C@H](O)[C@@H](O)[C@H](N=C(N)N)[C@@H](O)[C@@H]3N=C(N)N)O[C@@H](C)[C@]2(O)C=O)O[C@@H](CO)[C@H](O)[C@H]1O,N-966,16 µg/mL
CC1(C)S[C@@H]2[C@H](NC(=O)[C@H](C(=O)[O-])c3ccsc3)C(=O)N2[C@H]1C(=O)[O-].[Na+].[Na+],30 isolates,>128 µg/mL

A second listing of 3 rows from above:

structure,strain or isolate,value
CCC(C)N1CCN(c2cc(=O)c3nc4c(oc3c2)c2c(=O)c3c(O)c(C)c5c(c34)=C(O)[C@@](C)(O/C=C/[C@H](OC)[C@@H](C)[C@@H](OC(C)=O)[C@H](C)[C@H](O)[C@H](C)[C@@H](O)[C@@H](C)/C=C/C=C(/C)C(=O)N2)O5)CC1,31F093T,0.035 µg/mL
C[C@@H](O)[C@H]1C(=O)N2C(C(=O)O)=C(SCCN=CN)C[C@H]12,32 isolates,4 µg/mL
CO[C@H]1/C=C/O[C@@]2(C)Oc3c(C)c(O)c4c(O)c(c5c(c4c3C2=O)NC2(CCN(CC(C)C)CC2)N=5)=NC(=O)/C(C)=C\C=C\[C@H](C)[C@H](O)[C@@H](C)[C@@H](O)[C@@H](C)[C@H](OC(C)=O)[C@@H]1C,31F093T,1.25 µg/mL